Source: PubChem BioAssay AID1224833 (University of Georgia, 2016)
Here is an unselected part of about 12,000 deposited reagents. About 5,600 of all reagents (46%) were called active. 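Active calls cover z-scores past 1 in both directions, so they include lowered as well as raised rotavirus replication.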

Purpose: 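Human genes whose knock-down alters rotavirus replication in monkey cells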 (primary screen)
System: monkey MA104 kidney cells
Knock-down reagent: siRNA pool against human genes, 50 nM
Time to read-out: 48 h knock-down before infection; read 24 h after infection
Treatment: infection with rotavirus strain RV3 two days after transfection; infectious dose for this stage not given
Measurement: 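z-score of rotavirus antigen signal per well, from a fluorescent immunoassay, relative to non-targeting control wells on the same plate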
Scale: z-score vs non-targeting control: higher = more rotavirus replication than with non-targeting control
Call rule: In these data the active calls have z-score vs non-targeting control at about -1 or lower, or at about 1 or higher
Meaning of the calls: active = z-score beyond 1 either way; inactive = z-score within 1 of zero

gene symbol,z-score vs non-targeting control,Outcome
CLPP (GeneID 8192),3.09,active
SLC9A5 (GeneID 6553),1.52,active
RAB17 (GeneID 64284),0.603,inactive
TBPL2 (GeneID 387332),-1.71,active
SPATA31A7 (GeneID 26165),0.658,inactive
ZNF2 (GeneID 7549),-1.24,active
RBM41 (GeneID 55285),-0.97,inactive
DOK1 (GeneID 1796),0.623,inactive
OR2T29 (GeneID 343563),0.0209,inactive
MRPL12 (GeneID 6182),-0.959,inactive
ARHGAP21 (GeneID 57584),-0.722,inactive
TBC1D32 (GeneID 221322),-0.0321,inactive
EIF3M (GeneID 10480),-1.56,active
ADAM17 (GeneID 6868),-2.97,active
ZNHIT1 (GeneID 10467),-1.08,active
NUP214 (GeneID 8021),-1.12,active
SRARP (GeneID 149563),0.63,inactive
CREB3L3 (GeneID 84699),0.0392,inactive
BAK1 (GeneID 578),-0.69,inactive
CCDC12 (GeneID 151903),-2.56,active
GLRX3 (GeneID 10539),-1.02,active
SEC14L4 (GeneID 284904),1.88,active
FRMD7 (GeneID 90167),-2.04,active
TOMM20 (GeneID 9804),-1.95,active
RCAN2 (GeneID 10231),-0.396,inactive
GIGYF1 (GeneID 64599),0.52,inactive
DMAC1 (GeneID 90871),-1.25,active
IFNLR1 (GeneID 163702),0.95,inactive
IRF4 (GeneID 3662),-1.87,active
LMLN (GeneID 89782),1.12,active
BICD2 (GeneID 23299),2.22,active
MAMDC2 (GeneID 256691),0.334,inactive
GLP2R (GeneID 9340),1.11,active
POLR3C (GeneID 10623),-0.893,inactive
NR6A1 (GeneID 2649),-0.52,inactive
VAC14 (GeneID 55697),0.145,inactive
SLC39A8 (GeneID 64116),-0.717,inactive
TRUB2 (GeneID 26995),-0.678,inactive
PDE6D (GeneID 5147),-1.43,active
TBC1D15 (GeneID 64786),1.38,active
LRRC75B (GeneID 388886),-1.19,active
PCDH8 (GeneID 5100),-0.757,inactive
CLEC18C (GeneID 283971),-0.889,inactive
TFDP2 (GeneID 7029),-0.803,inactive
SEC23IP (GeneID 11196),-0.292,inactive
NRN1 (GeneID 51299),-1.35,active
PLEKHG3 (GeneID 26030),-1.68,active
SLC41A2 (GeneID 84102),1.78,active
C11orf24 (GeneID 53838),-2.46,active
NPSR1 (GeneID 387129),3.44,active
POLK (GeneID 51426),-1.46,active
SEMG2 (GeneID 6407),-0.177,inactive

Already shown: 9 of the entries above.
gene symbol,z-score vs non-targeting control,Outcome
GLP2R (GeneID 9340),1.11,active
POLR3C (GeneID 10623),-0.893,inactive
NR6A1 (GeneID 2649),-0.52,inactive
VAC14 (GeneID 55697),0.145,inactive
SLC39A8 (GeneID 64116),-0.717,inactive
TRUB2 (GeneID 26995),-0.678,inactive
PDE6D (GeneID 5147),-1.43,active
TBC1D15 (GeneID 64786),1.38,active
LRRC75B (GeneID 388886),-1.19,active

Further results follow.
gene symbol,z-score vs non-targeting control,Outcome
TELO2 (GeneID 9894),1.03,active
ZNF436 (GeneID 80818),-1.27,active
FAM199X (GeneID 139231),-0.903,inactive
CFAP20 (GeneID 29105),-1.29,active
PLAUR (GeneID 5329),-1.08,active
VHLL (GeneID 391104),0.0949,inactive
C2CD2 (GeneID 25966),0.135,inactive
TCP10L3 (GeneID 6953),1.25,active
EFHD1 (GeneID 80303),-0.541,inactive
CITED2 (GeneID 10370),2.48,active
DNAJA3 (GeneID 9093),0.769,inactive
GPI (GeneID 2821),1.48,active
MPHOSPH10 (GeneID 10199),-1.05,active
IFNA2 (GeneID 3440),-1.16,active
ZMAT2 (GeneID 153527),-1.1,active
EEPD1 (GeneID 80820),-0.693,inactive
CLDN2 (GeneID 9075),-3.23,active
LMX1A (GeneID 4009),-1.74,active
CHCHD6 (GeneID 84303),-0.0915,inactive
FLT3LG (GeneID 2323),-0.411,inactive
HAPSTR1 (GeneID 29035),1.21,active
SRSF2 (GeneID 6427),-1.07,active
QNG1 (GeneID 84267),0.179,inactive
DRC2 (GeneID 85478),-0.572,inactive
LINC02870 (GeneID 170393),0.34,inactive
NR1I3 (GeneID 9970),-0.825,inactive
KLHL20 (GeneID 27252),-0.811,inactive
DZIP1 (GeneID 22873),0.192,inactive
NRDC (GeneID 4898),1.26,active
CRYBB3 (GeneID 1417),0.0026,inactive
S100A7P3 (GeneID 645922),1.84,active
OR8B8 (GeneID 26493),-0.36,inactive
PLPPR2 (GeneID 64748),-2.06,active
KIAA0513 (GeneID 9764),0.42,inactive
FCGBP (GeneID 8857),0.353,inactive
CGB8 (GeneID 94115),-0.417,inactive
CLPB (GeneID 81570),-2.36,active
MITD1 (GeneID 129531),-0.635,inactive
RNASE13 (GeneID 440163),0.188,inactive
CCDC34 (GeneID 91057),-0.464,inactive
GPR155 (GeneID 151556),1.14,active
OR5I1 (GeneID 10798),0.601,inactive
KRT82 (GeneID 3888),1.22,active
ZMYM5 (GeneID 9205),0.819,inactive
OSBPL5 (GeneID 114879),-0.565,inactive
ZNF253 (GeneID 56242),-0.982,inactive
OR4D6 (GeneID 219983),-1.06,active
RPL10A (GeneID 4736),-1.28,active
ZFP28 (GeneID 140612),0.784,inactive
MTX2 (GeneID 10651),0.221,inactive
HCAR3 (GeneID 8843),1.62,active
TIA1 (GeneID 7072),-0.732,inactive
ITIH4 (GeneID 3700),0.0383,inactive
TENT4A (GeneID 11044),-1.83,active
CIMAP1D (GeneID 284451),-0.258,inactive
MYO5A (GeneID 4644),-1.13,active
GGT1 (GeneID 2678),0.504,inactive
C6orf136 (GeneID 221545),-0.181,inactive
